Anti-infective test results gathered from many reports (values: NIAID ChemDB through PubChem).

Shared fields: tests in culture; organism: HIV-1

Conditions beyond the fields shown may differ between rows. An empty or dashed field is not shown. ECn is the concentration giving n% inhibition of infection, replication or growth.

| compound | cell line | read-out | read by | changes | strain or isolate | result |
|---|---|---|---|---|---|---|
| CSCC[C@@H]1[C@H](O)[C@@H](O)[C@@H](CCSC)N(Cc2ccccc2)C(=O)N1Cc1ccccc1 | MT-2 | EC90 | hybridisation | - | RF | >10 µM |
| O=c1[nH]cnc2c1ncn2[C@H]1CC[C@@H](CO)O1 | MT-4 | EC50 | RT activity | RT-D67G | HxB2D(RT-D67G) | 1.5 µM |
| Cc1ccc(-c2ccc3c(c2)C=C(C(=O)Nc2ccc(C[N+](C)(C)C4CCOCC4)cc2)CCC3)cc1 | PBMC | EC50 | p24 | - | NL4-3 X4 | >1 µM |
| Cc1c(N)nc(N)nc1OCCOCP(=O)(O)O | CEM | EC50 | syncytia | - | IIIB | 0.062 µg/mL |
| CC(C)(C)NC(=O)[C@@H]1C[C@@H]2CCCC[C@@H]2CN1C[C@@H](O)[C@H](Cc1ccccc1)NC(=O)[C@H](CC(N)=O)NC(=O)c1ccc2ccccc2n1 | PBMC | EC50 | p24 | - | NL4-3 X4 | 0.01 µM |
| O=C1Nc2ccc(Cl)cc2CNC1c1ccccc1 | MT-4 | EC50 | cytopathic effect / MTT | - | - | >48 µM |
| CCOCn1c(Cc2ccccc2)c(C(C)C)c(=O)[nH]c1=O | MT-4 | EC50 | cytopathic effect / MTT | - | IIIB | 0.03 µM |
| CC(C)C1NCc2cc(Cl)ccc2NC1=S | MT-4 | EC50 | cytopathic effect / MTT | - | - | >100 µM |
| Cc1cc(C)c(-n2nnnc2SCC(=O)Nc2ccccc2Br)c(C)c1 | MT-4 | EC95 | p24 | - | - | <10 µM |
| COc1ccc(S(=O)(=O)N(CC2CCCC2)C[C@@H](O)[C@H](Cc2ccccc2)NC(=O)O[C@H]2CCOC2)cc1 | CEM + CEM-SS | EC90 | p24 | - | IIIB | 0.023 µM |
| CC(C)=CCN1Cc2cc(Cl)ccc2NC(=S)C1C | MT-4 | EC50 | cytopathic effect / MTT | - | - | 1.6 µM |
| Nc1ncnc2c1ncn2CCOCP(=O)(O)O | CEM | EC50 | syncytia | RT-M41L D67N V118I M184V L210W T215Y | Clinical isolate C20 | 25 µg/mL |
| COc1cccc(C[C@@H]2[C@H](O)[C@@H](O)[C@@H](Cc3cccc(OC)c3)N(Cc3ccccc3)C(=O)N2Cc2ccccc2)c1 | MT-2 | EC50 | hybridisation | - | RF | <0.35 µM |
| COc1ccccc1NC(=O)CSc1nnnn1-c1cccc2ccccc12 | MT-4 | EC95 | p24 | - | - | <10 µM |
| CCOCn1c(Cc2ccccc2)c(C(C)C)c(=O)n(C(=O)c2ccc(OP(=O)(OCCSC(=O)C(C)(C)C)OC[C@@H]3C=C[C@H](n4cc(C)c(=O)[nH]c4=O)O3)cc2)c1=O | CEM | EC50 | ELISA | RT-Y181C | N119 (NNRTI-resistant RT Y181C) | 0.3 µM |
| O=c1[nH]cnc2c1ncn2[C@H]1CC[C@@H](CO)O1 | MT-4 | EC50 | cytopathic effect / MTT | RT-K103R V179D P225H | EFV-resistant (RT K103R V179D P225H) | 1.2 µM |
| Nc1cc(OCCOCP(=O)(O)O)nc(N)n1 | CEM | EC50 | syncytia | - | IIIB | 1.1 µg/mL |
| O=C1N(Cc2cccc([N+](=O)[O-])c2)[C@H](Cc2ccccc2)[C@H](O)[C@@H](O)[C@@H](Cc2ccccc2)N1Cc1cccc([N+](=O)[O-])c1 | MT-2 | EC50 | hybridisation | - | RF | <0.97 µM |
| Cc1cc(C)c(-n2nnnc2SCC(=O)Nc2ccccc2C(F)(F)F)c(C)c1 | MT-4 | EC50 | p24 | - | - | <10 µM |
| O=C1N(Cc2ccccc2)[C@H](Cc2c[nH]c3ccccc23)[C@H](O)[C@@H](O)[C@@H](Cc2c[nH]c3ccccc23)N1Cc1ccccc1 | MT-2 | EC90 | hybridisation | - | RF | >10 µM |
| O=C1N(Cc2cccc(O)c2)[C@H](Cc2ccccc2)[C@H](O)[C@@H](O)[C@@H](Cc2ccccc2)N1Cc1cccc(O)c1 | MT-2 | EC50 | hybridisation | - | RF | <0.054 µM |
| CC(C)C1NCc2cc(Cl)ccc2N(C)C1=O | MT-4 | EC50 | cytopathic effect / MTT | - | - | >100 µM |
| O=C1N(Cc2cccc(Br)c2)[C@H](Cc2ccccc2)[C@H](O)[C@@H](O)[C@@H](Cc2ccccc2)N1Cc1cccc(Br)c1 | MT-2 | EC50 | hybridisation | - | RF | <1.2 µM |
| Cc1cn([C@H]2C[C@H](N=[N+]=[N-])[C@@H](CO)O2)c(=O)[nH]c1=O | PBMC | EC50 | p24 | - | HXB2 WT | 0.002 µM |
| O=C1N(Cc2ccc(F)cc2)[C@H](Cc2ccccc2)[C@H](O)[C@@H](O)[C@@H](Cc2ccccc2)N1Cc1ccc(F)cc1 | MT-2 | EC50 | hybridisation | - | RF | <0.6 µM |
| O=C(CSc1nnnn1-c1c(Cl)cccc1Cl)Nc1ccccc1Cl | MT-4 | EC50 | p24 | - | - | <10 µM |
| C[C@@H]1CN2CCC[C@@H]3CCCCC[C@@H]4C(=O)[C@@H](C)CN5CCC[C@@H](CCCCC[C@@H](C1=O)[C@H]32)[C@H]45 | MAGI | EC50 | β-galactosidase | - | MN | 55.31 µM |
| O=C1N(Cc2ccccc2)[C@H](Cc2ccc(O)cc2)[C@H](O)[C@@H](O)[C@@H](Cc2ccc(O)cc2)N1Cc1ccccc1 | MT-2 | EC50 | hybridisation | - | RF | <0.185 µM |
| CC(C)=CCN1CC(=O)Nc2ccc(Cl)cc2C1 | MT-4 | EC50 | cytopathic effect / MTT | - | - | 86.4 µM |
| Cc1cn([C@H]2C=C[C@@H](CO)O2)c(=O)[nH]c1=O | MT-4 | EC50 | cytopathic effect / MTT | RT-Y181C | NNRTI-resistant (RT Y181C) | 0.4 µM |
| COc1ccc(S(=O)(=O)NC(N)=NCCC[C@H](NC(=O)N[C@@H](Cc2ccccc2)C(=O)OC(C)(C)C)C(=O)N[C@H](C(=O)N[C@H](COCc2ccccc2)Cc2ccccc2)C(C)C)cc1 | MT-4 | EC50 | - | - | - | >100 µM |
| Fc1cccc(Cl)c1C1OCc2nc3ccccc3n21 | CEM | EC50 | cytopathic effect / MTT | - | IIIB | 6.24 µM |
| Nc1nc(=O)n([C@@H]2CO[C@H](CO)S2)cc1F | CBMC | EC50 | RT activity | - | 1075 (AZT-resistant) | 2 µM |
| Cc1cc(C)c(-n2nnnc2S(=O)CC(=O)Nc2ccccc2[N+](=O)[O-])c(C)c1 | MT-4 | EC95 | p24 | - | - | <10 µM |
| CC(C)C1C(=S)Nc2ccc(Cl)cc2CN1C(=O)OC(C)(C)C | MT-4 | EC50 | cytopathic effect / MTT | - | - | 7.9 µM |
| O=C1N(Cc2ccc(Br)cc2)[C@H](Cc2ccccc2)[C@H](O)[C@@H](O)[C@@H](Cc2ccccc2)N1Cc1ccc(Br)cc1 | MT-2 | EC50 | hybridisation | - | RF | <8.1 µM |
| Cc1ccnc2c1NC(=O)c1cccnc1N2C1CC1 | MT-2 | EC50 | p24 | - | MN | 0.04 µM |
| Cc1c(O)cccc1C(=O)N[C@@H](CSc1ccccc1)[C@H](O)CN1C[C@H]2CCCC[C@H]2C[C@H]1C(=O)NC(C)(C)C | MT-4 | EC50 | - | - | - | <0.032 µM |
| CCO/N=C(\c1ccc(Br)cc1)C1CCN(C2(C)CCN(C(=O)c3c(C)cc[n+]([O-])c3C)CC2)CC1 | PBMC | EC50 | p24 | - | HJE155 R5 CLADE B | 0.0012 µM |
| COc1ccccc1C[C@@H]1[C@H](O)[C@@H](O)[C@@H](Cc2ccccc2OC)N(CC2CC2)C(=O)N1CC1CC1 | MT-2 | EC90 | hybridisation | - | RF | >10 µM |
| Cc1ccnc2c1NC(=O)c1cccnc1N2C1CC1 | CEM + CEM-SS | EC50 | cytopathic effect / XTT | RT-L100I | NL4-3 (RT L100I) | 0.1 µM |
| Cc1cn([C@H]2C[C@H](N=[N+]=[N-])[C@@H](COP(=O)(OCCSC(=O)C(C)(C)C)OCCSC(=O)C(C)(C)C)O2)c(=O)[nH]c1=O | CEM + CEM TK- | EC50 | RT activity | - | LAI | 0.45 µM |
| O=C1N(Cc2ccccc2)[C@H](CC2CCCCC2)[C@H](O)[C@@H](O)[C@@H](CC2CCCCC2)N1Cc1ccccc1 | MT-2 | EC90 | hybridisation | - | RF | >10 µM |
| Nc1nc(N)c(Cl)c(OCCOCP(=O)(O)O)n1 | CEM | EC50 | syncytia | - | IIIB | 0.93 µg/mL |
| Cc1cn([C@H]2C=C[C@@H](COC(=O)NCCSC(=O)OC[C@@H]3CC[C@H](n4cnc5c(=O)[nH]cnc54)O3)O2)c(=O)[nH]c1=O | MT-4 | EC50 | cytopathic effect / MTT | RT-K103R V179D P225H | EFV-resistant (RT K103R V179D P225H) | >20 µM |
| Cc1occc1C(=S)Nc1ccc(Cl)c(/C=N/OC(C)(C)C)c1 | CEM + CEM-SS | EC50 | cytopathic effect / XTT | RT-L74V | NL4-3 (RT L74V) | 0.07 µM |
| Cc1c(N)nc([C@H](CC(N)=O)NC[C@H](N)C(N)=O)nc1C(=O)N[C@H](C(=O)N[C@H](C)[C@@H](O)[C@H](C)C(=O)N[C@H](C(=O)NCCc1nc(-c2nc(C(=O)NCCC[S+](C)C)cs2)cs1)[C@@H](C)O)C(O[C@@H]1O[C@@H](CO)[C@@H](O)[C@H](O)[C@@H]1O[C@H]1O[C@H](CO)[C@@H](O)[C@H](OC(N)=O)[C@@H]1O)c1cnc[nH]1 | PBLC | EC50 | XTT / p24 | - | BaL | ~0.3 µg/mL |
| C/C=C/CSc1cc(NC(=S)c2ccsc2C)ccc1Cl | CEM + CEM-SS | EC50 | cytopathic effect / XTT | RT-A98G | NL4-3 (RT A98G) | 0.1 µM |
| Fc1cccc(F)c1C1SCc2nc3ccccc3n21 | CEM | EC50 | cytopathic effect / MTT | - | IIIB | 1.39 µM |
| Cc1cn([C@H]2C[C@H](N=[N+]=[N-])[C@@H](CO)O2)c(=O)[nH]c1=O | MT-4 | EC50 | RT activity | - | HXB2D | 0.014 µM |
| CC(C)[C@H](NC(=O)[C@H](CCCN=C(N)N)NC(=O)N[C@@H](Cc1ccccc1)C(=O)O)C(=O)NC(C=O)Cc1ccccc1 | MT-4 | EC50 | - | - | - | >41 µM |
| Nc1nc(=O)n([C@H]2CO[C@@H](CO)S2)cc1F | CBMC | EC50 | RT activity | - | HXB2D | 3.4 µM |
| Cc1cc(C)c(-n2nnnc2OCC(=O)Nc2ccccc2Cl)c(C)c1 | MT-4 | EC95 | p24 | - | - | <10 µM |
| C=C(C)CN1Cc2cc(Cl)ccc2NC(=O)[C@@H]1C | MT-4 | EC50 | cytopathic effect / MTT | - | - | >100 µM |
| O=C(CSc1nnnn1-c1ccccc1Cl)Nc1ccccc1Cl | MT-4 | EC50 | p24 | - | - | <10 µM |
| O=c1[nH]cnc2c1ncn2[C@H]1CC[C@@H](CO)O1 | PBMC | EC50 | p24 | - | HXB2 WT | 0.8 µM |
| Cc1cc(C)c(-n2nnnc2SCC(=O)Nc2ccc(F)cc2Cl)c(C)c1 | MT-4 | EC50 | p24 | - | - | <10 µM |
| CC(C)NC(=O)N1Cc2cc(Cl)ccc2NC(=O)[C@@H]1C | MT-4 | EC50 | cytopathic effect / MTT | - | - | >619 µM |

The last 6 rows once more:

{"compound": "Cc1cc(C)c(-n2nnnc2OCC(=O)Nc2ccccc2Cl)c(C)c1", "cell line": "MT-4", "read-out": "EC95", "read by": "p24", "result": "<10 µM"}
{"compound": "C=C(C)CN1Cc2cc(Cl)ccc2NC(=O)[C@@H]1C", "cell line": "MT-4", "read-out": "EC50", "read by": "cytopathic effect / MTT", "result": ">100 µM"}
{"compound": "O=C(CSc1nnnn1-c1ccccc1Cl)Nc1ccccc1Cl", "cell line": "MT-4", "read-out": "EC50", "read by": "p24", "result": "<10 µM"}
{"compound": "O=c1[nH]cnc2c1ncn2[C@H]1CC[C@@H](CO)O1", "cell line": "PBMC", "read-out": "EC50", "read by": "p24", "strain or isolate": "HXB2 WT", "result": "0.8 µM"}
{"compound": "Cc1cc(C)c(-n2nnnc2SCC(=O)Nc2ccc(F)cc2Cl)c(C)c1", "cell line": "MT-4", "read-out": "EC50", "read by": "p24", "result": "<10 µM"}
{"compound": "CC(C)NC(=O)N1Cc2cc(Cl)ccc2NC(=O)[C@@H]1C", "cell line": "MT-4", "read-out": "EC50", "read by": "cytopathic effect / MTT", "result": ">619 µM"}